# Data from EP1951748B1, “HEPATITIS C VIRUS VARIANTS” (Vertex Pharmaceuticals, Inc., priority 2005, dated 2007).
# Test system: HCV NS3 protease A156T/V/I
# Assay: Enzymatic IC50 assay, mutations at the same position pooled
# Assay type: biochemical
# Settings: mean of all A156T/V/I mutants tested
smiles,measurement,value
CCC[C@H](NC(=O)[C@@H]1[C@H]2CCC[C@H]2CN1C(=O)[C@@H](NC(=O)[C@@H](NC(=O)c1cnccn1)C1CCCCC1)C(C)(C)C)C(=O)C(=O)NC1CC1 [VX-950],IC50,29.8 µM
